Pooled drug test results. Numbers come from NIAID ChemDB, via PubChem.

Common to all: enzyme or target tests; species: HIV-1; target: Integrase; read by: 3′ processing; endpoint: IC50

ICn is the concentration giving n% inhibition. An empty or dashed field is not shown. Lines come from different laboratories, so protocols vary.

SMILES | strain or isolate | result
O=C1/C(=C\c2cc(O)c(O)c(O)c2)Cc2ccccc21 | - | 0.3 µM
COc1cc(C(=O)Oc2c(-c3ccc(Cl)c(Cl)c3)oc3ccccc3c2=O)ccc1O | - | >100 µM
O=C1/C(=C/c2ccc([N+](=O)[O-])c(O)c2)CN(Cc2ccccc2)C/C1=C\c1ccc([N+](=O)[O-])c(O)c1 | - | >100 µM
Cc1cc(O)c2c(c1O)C(=O)C13C(=C2O)C(=O)C2C(O)C1C1C(O)C3C(=O)C3=C(O)c4c(O)cc(C)c(O)c4C(=O)C321 | - | 4.7 µM
CN(C)[C@H]1C(=O)C(C(=O)NCN2CCN(C(=N)N=C(N)N)CC2)=C(O)[C@]2(O)C(=O)C3=C(O)c4c(O)cccc4[C@](C)(O)[C@@H]3C[C@H]12 | RF | 0.9 µM
CC(C)(C)OC(=O)C1[C@@H]2O[C@@]3(CCC[C@H]13)C(=O)c1cc3c(cc12)OCO3 | - | >250 µM
CN(C)C1C(=O)C(C(=O)NCNc2cccc(C(=O)O)c2C(=O)O)=C(O)C2(O)C(=O)C3=C(O)c4c(O)cccc4[C@](C)(O)[C@@H]3C[C@H]12 | RF | 1.7 µM
C/C(=N/NC1=NCCN1)c1cn(C2=NCCN2)nc1C | - | >250 µM
O/N=C1\C(=C\c2ccc3c(c2)OCCO3)CCCC1C(NO)c1ccc2c(c1)OCCO2 | RF | >200 µM
O=c1c(O)c(-c2ccc(Cl)c(Cl)c2)oc2ccccc12 | - | >100 µM
CN(C)C1C(=O)C(C(=O)NCNCCC(=O)O)=C(O)C2(O)C(=O)C3=C(O)c4c(O)cccc4C(C)(O)C3CC12 | RF | 5.1 µM
O=C(Oc1c(-c2ccc(Cl)c(Cl)c2)oc2ccccc2c1=O)c1cc(OCc2ccccc2)c(OCc2ccccc2)c(OCc2ccccc2)c1 | - | >100 µM
O=C1/C(=C/c2cc(O)c(O)c(O)c2)COC/C1=C\c1cc(O)c(O)c(O)c1 | - | 6 µM
O/N=C1\C(=C\c2ccc3c(c2)OCO3)CCCC1C(NO)c1ccc2c(c1)OCO2 | RF | >200 µM
CCN1C/C(=C\c2ccc(O)c([N+](=O)[O-])c2)C(=O)/C(=C/c2ccc(O)c([N+](=O)[O-])c2)C1 | - | >100 µM
COc1cc(/C=C2\NC(=O)C3Cc4c(OC)c(C)c(OC)c(OC)c4C2N3C)c(OC)c(OC)c1OC | - | >250 µM
CCN1C/C(=C\c2ccc(O)c(O)c2)C(=O)/C(=C/c2ccc(O)c(O)c2)C1 | - | 0.5 µM
CN(C)C1C(=O)C(C(=O)NCNC(CCS(C)=O)C(=O)[O-])=C(O)C2(O)C(=O)C3=C(O)c4c(O)cccc4C(C)(O)C3CC12.[Na+] | RF | 1.2 µM
COc1cc(Oc2c(O)c(C)c(OC)c(C(C)=O)c2O)c(C(C)=O)c(O)c1C | - | >250 µM
O=C(/C=C/c1ccc(O)c(O)c1)Oc1c(-c2ccc(Cl)cc2)oc2ccccc2c1=O | - | 75 µM
COc1ccc(=NC(C)=O)c2c(O)c3c(=O)c4[nH]c5c(OC)ccc(=NC(C)=O)c5c(O)c4c(=O)c3[nH]c12 | - | >250 µM
CC(C)c1ccc(C(c2ccc(OCC(=O)O)cc2)c2ccc(C(C)C)cc(=O)c2O)c(O)c(=O)c1 | RF | 1.4 µM
COc1cc(/C=C/C(=O)Oc2c(-c3ccc(Cl)c(Cl)c3)oc3ccccc3c2=O)ccc1O | - | >100 µM
O=C1/C(=C/c2ccc(O)c([N+](=O)[O-])c2)CNC/C1=C\c1ccc(O)c([N+](=O)[O-])c1 | - | >100 µM
COc1cccc2c1C(=O)c1c(O)c3c(c(O)c1C2=O)C[C@@](O)(C(=O)CO)C[C@@H]3O[C@H]1C[C@H](N(C)C)[C@H](O)[C@H](C)O1 | RF | 2.3 µM

A second listing of 2 rows from above:

{"SMILES": "Cc1cc(O)c2c(c1O)C(=O)C13C(=C2O)C(=O)C2C(O)C1C1C(O)C3C(=O)C3=C(O)c4c(O)cc(C)c(O)c4C(=O)C321", "result": "4.7 µM"}
{"SMILES": "CN(C)C1C(=O)C(C(=O)NCNCCC(=O)O)=C(O)C2(O)C(=O)C3=C(O)c4c(O)cccc4C(C)(O)C3CC12", "strain or isolate": "RF", "result": "5.1 µM"}